The target in the test is HCV polymerase (Hepatitis C virus genotype 1b, UniProt Q9WMX2). The test can be described thus: Polymerase assay of Biological Example 1 (IC50 values of Table 3). The test is classed as biochemical. The conditions noted are these: read-out: NS5B-enzyme3; IC50 values of Table 3, polymerase assay of Biological Example 1. The source says: A number of assays have been published to assess these activities. A general method that assesses the gross increase of HCV virus in culture was disclosed in U.S. Pat. No. 5,738,985 to Miles et al. In vitro assays have been reported in Ferrari et al. Jnl. of Vir., 73:1649-1654, 1999; Ishii et al., Hepatology, 29:1227-1235, 1999; Lohmann et al., Jnl of Bio. Chem., 274:10807-10815, 1999; and Yamashita et al., Jnl. of Bio. Chem., 273:15479-15486, 1998.
WO 97/12033, filed on Sep. 27, 1996, by Emory University, listing C. Hagedorn and A. Reinoldus as inventors, which claims priority to U.S. Provisional Patent Application Ser. No. 60/004,383, filed on September 1995, described an HCV polymerase assay that can be used to evaluate the activity of the of the compounds described herein. Another HCV polymerase assay has been reported by Bartholomeusz, et al., Hepatitis C Virus (HCV) RNA polymerase assay using cloned HCV non-structural proteins; Antiviral Therapy 1996:1 (Supp 4) 18-24.

Experimental findings from patent publication US9498483B2, “2,3,5-trisubstituted thiophene compounds and uses thereof” (priority 2010, dated 2016) are described below.

pIC50: −log10 of the molar value.

Turning to `O=C(COc1ccccc1)NC1CC(=O)N(c2cc(-c3ccccc3)sc2C(=O)O)C(C2CCCCC2)C1` (stereo not shown), the pIC50 is 6.01.
